Pooled drug test results. Numbers come from NIAID ChemDB, via PubChem.

Shared fields: growth or infection tests

ECn is the concentration giving n% inhibition of infection, replication or growth. Neighbouring rows are from separate reports. MIC50, MIC90 and the like: level of inhibition, or share of isolates inhibited. Percent inhibition refers to the dose given; in toxicity tests it is the harm to the cells.

CO/N=C1\CN(c2nc3c(cc2F)c(=O)c(C(=O)O)cn3C2CC2)CC1CN ; agent: Streptococcus pneumoniae ; measure: MIC90 ; strain: 37 isolates erythromycin-resistant ; value: 0.063 µg/mL
COc1c(N2CCNC(C)C2)c(F)cc2c(=O)c(C(=O)O)cn(C3CC3)c12 ; agent: Streptococcus pneumoniae ; measure: MIC90 ; strain: 15 strains ; value: 0.39 µg/mL
CC1(C)S[C@@H]2[C@H](NC(=O)[C@H](N)c3ccc(O)cc3)C(=O)N2[C@H]1C(=O)O ; agent: Haemophilus influenzae ; measure: MIC90 ; strain: 434 strains ; value: 2 µg/mL
CCNC/C=C\CNC/C=C\CNCCCCNCC ; agent: Encephalitozoon cuniculi ; measure: EC50 ; value: 410 µM
CC(=O)NC[C@H]1CN(c2ccc(-c3noc(C#N)n3)c(F)c2)C(=O)O1 ; agent: Staphylococcus epidermidis ; measure: MIC ; strain: UC12084 (methicillin-resistant) ; value: 4 µg/mL
NCCCC[C@H](N)C(=O)Nc1cccc(-c2ccc(NC(=O)Nc3nc4ccccc4s3)nc2)c1 ; agent: Bovine viral diarrhea virus ; measure: EC50 ; cells: MDBK ; strain: F78I ; read by: plaque count ; value: 8.3 µM
O=C(c1ccccc1)N(CCc1ccccc1)C[C@H](O)CN(CC1CCCC1)S(=O)(=O)CC1CS(=O)(=O)CC1O ; agent: HIV-1 ; measure: EC90 ; cells: CEM ; strain: IIIB ; read by: p24 ; value: 1 µM
COCC1=C(C(=O)O)N2C(=O)C(NC(=O)/C(=N/OC)c3csc(N)n3)C2SC1 ; agent: Haemophilus influenzae ; measure: MIC90 ; strain: 434 strains ; value: ≤0.06 µg/mL
CC(C)N=C(N)c1ccc2nc(-c3ccc4c(c3)Cc3cc(-c5nc6ccc(C(N)=NC(C)C)cc6[nH]5)ccc3-4)[nH]c2c1 ; agent: Candida albicans ; measure: MFC ; strain: Isolate 17 (strain 12-99) ; value: 3.12 µg/mL
c1ccc(N2CCN(c3ccccc3)C2c2ccc(N3CCN(c4ccc(C5N(c6ccccc6)CCN5c5ccccc5)cc4)CC3)cc2)cc1 ; agent: Pneumocystis carinii ; measure: EC50 ; read by: ATP ; value: >100 µg/mL
Oc1ccc(/C=C/c2cc(O)cc(O)c2)cc1 ; agent: Epstein-Barr virus ; measure: inhibition ; read by: antigen ; tested at: 27 µM ; value: 42%
O=C1[C@@H](Cc2ccccc2)NC(=S)N1c1ccccc1 ; agent: HIV-2 ; measure: inhibition ; cells: MT-4 ; read by: cytopathic effect / XTT ; tested at: 0.1 µg/mL ; value: 24%
CCNCCCCNCCCCNCCCCNC/C=C/CNCCCCNCCCCNCCCCNCC ; agent: Encephalitozoon cuniculi ; measure: EC50 ; value: 8.2 µM
COc1cc(/C=C/C(C)=O)ccc1O ; agent: Aspergillus ochraceus ; measure: MFC ; strain: MTCC 4643 ; read by: broth dilution ; value: 963 µM
O=C(NCc1ccc(Cl)cc1)c1cn2c3c(cc(CN4CCOCC4)cc3c1=O)OC(c1cccnc1)C2 ; agent: Rhesus cytomegalovirus ; measure: EC50 ; cells: HFF ; read by: plaque count ; value: 3 µM
CCC(C)CC(C)CCCCCCCCC(=O)N[C@H]1C[C@@H](O)[C@H](NCCN)NC(=O)[C@@H]2[C@@H](O)CCN2C(=O)[C@H]([C@H](O)CCN)NC(=O)[C@H]([C@H](O)[C@@H](O)c2ccc(O)cc2)NC(=O)[C@@H]2C[C@@H](O)CN2C(=O)[C@H]([C@@H](C)O)NC1=O ; agent: Cryptococcus gattii ; measure: MIC ; strain: CBS 10865 ; read by: broth dilution ; value: 16 µg/mL
Cc1nc(NC(=O)NCCc2ccccc2)sc1C ; agent: HIV-2 ; measure: inhibition ; cells: MT-4 ; read by: RT activity ; tested at: 1 µg/mL ; value: 92%
COC(=O)n1ccc(-c2ccc(N3C[C@H](CNC(C)=O)OC3=O)cc2F)n1 ; agent: Staphylococcus epidermidis ; measure: MIC ; strain: UC12084 (methicillin-resistant) ; value: 2 µg/mL
CCC ; agent: Influenza A virus ; measure: EC50 ; cells: MDCK ; strain: AICHI/1/68(X-31) (H3) ; value: >500 µM
COc1c(N2C[C@@H]3CCCN[C@@H]3C2)c(F)cc2c(=O)c(C(=O)O)cn(C3CC3)c12 ; agent: Streptococcus pneumoniae ; measure: MIC90 ; strain: 250 isolates (penicillin-resistant) ; value: 0.17 µg/mL
NC(=O)CC(N=C(N)c1ncn([C@@H]2O[C@H](CO)[C@@H](O)[C@H]2O)n1)C(=O)O ; agent: Sandfly fever virus ; measure: EC50 ; cells: VERO ; strain: Sicilian ; read by: cytopathic effect ; value: 484 µg/mL
CCNCCCCNCCCCNCCCCNCCCCNCCCCNC/C=C/CNCCCCNCCCCNCCCCNCCCCNCCCCNCC ; agent: Encephalitozoon cuniculi ; measure: EC50 ; value: 0.4 µM
CCCCN=C(N)c1ncn([C@@H]2O[C@H](CO)[C@@H](O)[C@H]2O)n1 ; agent: Sandfly fever virus ; measure: EC50 ; cells: VERO ; strain: Sicilian ; read by: cytopathic effect ; value: 73 µg/mL
CC1(C(=O)O)CCC2(C)CCC3(C)C(=CC(=O)C4C5(C)CCC(OC(=O)C6CCCCC6C(=O)O)C(C)(C)C5CCC43C)C2C1 ; agent: Adenovirus ; measure: inhibition ; strain: TYPE 5 ; read by: virus yield ; tested at: 10 µM ; value: 25%
C/C=C\[C@@H]1C[C@H](C(=O)O)N[C@H]1[C@@H](NC(C)=O)[C@](C)(CCC)OC ; agent: Influenza A virus ; measure: EC50 ; cells: MDCK ; strain: H1N1 isolate C28C ; read by: plaque count ; value: ≤0.015 µg/mL
Nc1nc2c(ncn2COC2COP(=O)(O)OC2)c(=O)[nH]1 ; agent: Guinea pig herpesvirus ; measure: EC90 ; cells: GPE ; strain: Lymphotropic ; read by: virus yield ; value: 0.9 µg/mL
C=CCc1ccc(O)c(OC)c1 ; agent: Candida tropicalis ; measure: MIC90 ; strain: 2029 ; read by: turbidity ; value: 490 µg/mL
COC(=O)[C@H]1[C@@H]2C[C@@H](O[C@@H]3O[C@H](C)[C@@H](O)[C@H](N)[C@@H]3O)/C=C/C=C/C=C/C=C/C=C/C=C/C=C/[C@H](C)[C@@H](O)[C@H](C)[C@H](C)OC(=O)C[C@H](O)C[C@H](O)[C@@H](O)CC[C@H](O)C[C@H](O)C[C@](O)(C[C@@H]1O)O2 ; agent: Adenovirus ; measure: inhibition ; cells: HFF ; strain: TYPE 4 ; read by: plaque count ; tested at: 32 µg/mL ; value: 15%
CCOC(=O)c1nc(-c2ccc(N3C[C@H](CNC(C)=O)OC3=O)cc2F)ns1 ; agent: Haemophilus influenzae ; measure: MIC ; strain: UC 30063 ; value: >16 µg/mL
NC(=O)CCC(N=C(N)c1ncn([C@@H]2O[C@H](CO)[C@@H](O)[C@H]2O)n1)C(=O)O ; agent: Sandfly fever virus ; measure: EC50 ; cells: VERO ; strain: Sicilian ; read by: cytopathic effect ; value: 547 µg/mL
COc1ccc(S(=O)(=O)N(CC(C)C)CC(O)CN2CCN(Cc3cccnc3)C[C@H]2C(=O)NC(C)(C)C)cc1 ; agent: HIV-1 ; measure: EC90 ; cells: CEM ; strain: IIIB ; read by: p24 ; value: 1 µM
CC(=O)NC[C@H]1CN(c2ccc(-c3ccn(CCC#N)n3)c(F)c2)C(=O)O1 ; agent: Haemophilus influenzae ; measure: MIC ; strain: UC 30063 ; value: >64 µg/mL
CC(=O)OC[C@H]1O[C@@H](n2ncc(=O)[nH]c2=O)[C@H](OC(C)=O)[C@@H]1OC(C)=O ; agent: Dengue virus ; measure: EC50 ; cells: LLC-MK2 ; strain: Caribbean (type 4) ; read by: plaque count ; value: <1 µg/mL
CCNCCCCNC[C@@H]1C[C@@H]1CNCCCCNCC ; agent: Encephalitozoon cuniculi ; measure: EC50 ; value: 166.5 µM
OC[C@H]1O[C@@H](n2cnc3c(SCc4ccc(Cl)cc4Cl)ncnc32)[C@H](O)[C@@H]1O ; agent: Toxoplasma gondii ; measure: inhibition ; strain: RH (WILD TYPE) ; tested at: 10 µM ; value: 20.9%
COc1ccc(S(=O)(=O)N(Cc2ccccc2)CC(F)(F)C(=O)[C@@H](Cc2ccccc2)NC(=O)OC2COCOC2)cc1 ; agent: HIV-1 ; measure: EC90 ; cells: CEM ; strain: IIIB ; read by: p24 ; value: 1 µM
N=C(N)c1ncn([C@@H]2O[C@H](CO)[C@@H](O)[C@H]2O)n1 ; agent: West Nile virus ; measure: EC50 ; value: >100 µM
CSc1nsc(-c2ccccc2)c1C#N ; agent: Coxsackie virus ; measure: EC50 ; cells: HEP-2 ; strain: TYPE B1 ; read by: plaque count ; value: >20 µM
CCCCCCCCCN=C(N)c1ccc(N2CCN(c3ccc(C(N)=NCCCCCCCCC)cc3)CC2)cc1 ; agent: Pneumocystis carinii ; measure: EC50 ; read by: ATP ; value: 0.284 µg/mL
O=C(NCCc1ccccc1)Nc1nc(C(F)(F)F)cs1 ; agent: HIV-2 ; measure: inhibition ; cells: MT-4 ; read by: RT activity ; tested at: 100 µg/mL ; value: 96%
CC(=O)NC[C@H]1CN(c2ccc(-c3ccn(C)n3)c(F)c2)C(=O)O1 ; agent: Haemophilus influenzae ; measure: MIC ; strain: UC 30063 ; value: >64 µg/mL
CO[C@H]1/C=C/O[C@@]2(C)Oc3c(C)c(O)c4c(O)c(c(/C=N/N5CCN(C6CCCC6)CC5)c(O)c4c3C2=O)NC(=O)/C(C)=C\C=C\[C@H](C)[C@H](O)[C@@H](C)[C@@H](O)[C@@H](C)[C@H](OC(C)=O)[C@@H]1C ; agent: Mycobacterium avium intracellulare ; measure: MIC90 ; strain: 21 strains ; value: 1 µg/mL
COc1nsc(-c2ccccc2)c1C#N ; agent: Adenovirus ; measure: EC50 ; cells: HEP-2 ; strain: TYPE 2 ; read by: plaque count ; value: >25 µM
Nc1nc2c(ncn2COC(CO)CO)c(=O)[nH]1 ; agent: Rhesus cytomegalovirus ; measure: EC50 ; cells: MRC-5 ; strain: 68-1 ; read by: plaque count ; value: 8 µM
Nc1nc2ncn(O)c2c(=O)[nH]1 ; agent: Vesicular stomatitis virus ; measure: EC50 ; cells: BHK ; strain: Indiana ; read by: plaque count ; value: 27.9 µg/mL
C/C(=C\C(=O)CCCCCCCCC(=O)O)C[C@@H]1OC[C@H](C[C@H]2O[C@H]2[C@@H](C)[C@H](C)O)[C@@H](O)[C@H]1O ; agent: Saccharomyces cerevisiae ; measure: MIC ; value: >128 µg/mL
CC[C@H]1OC(=O)[C@H](C)[C@@H](O[C@H]2C[C@@](C)(OC)[C@@H](O)[C@H](C)O2)[C@H](C)[C@@H](O[C@@H]2O[C@H](C)C[C@H](N(C)C)[C@H]2O)[C@](C)(O)C[C@@H](C)/C(=N\OCOCCOC)[C@H](C)[C@@H](O)[C@]1(C)O ; agent: Haemophilus influenzae ; measure: MIC50 ; strain: 434 strains ; value: 8 µg/mL
CCNCCCCNCCCCNCCCCNC/C=C\CNCCCCNCCCCNCCCCNCC ; agent: Encephalitozoon cuniculi ; measure: EC50 ; value: 1.9 µM
COc1ccc(S(=O)(=O)N(CC(C)C)C[C@@H](O)CCN(CC2CCCC2)S(=O)(=O)CC(C)(C)C)cc1 ; agent: HIV-1 ; measure: EC90 ; cells: CEM ; strain: IIIB ; read by: p24 ; value: 1 µM
CSc1nsc(-c2c(Cl)cccc2Cl)c1C#N ; agent: Measles virus ; measure: EC50 ; cells: HEP-2 ; strain: Edmonston ; read by: plaque count ; value: >5 µM
CC(=O)N1C(=O)[C@@H](Cc2ccccc2)NC1=S ; agent: HIV-2 ; measure: inhibition ; cells: MT-4 ; read by: cytopathic effect / XTT ; tested at: 10 µg/mL ; value: 0%
CCOC(=O)c1ccc(N2CCN(c3ccc(C(=O)OCC)cc3)CC2)cc1 ; agent: Pneumocystis carinii ; measure: EC50 ; read by: ATP ; value: >100 µg/mL
CSc1nsc(-c2ccccn2)c1C#N ; agent: Encephalomyocarditis virus ; measure: EC50 ; cells: L929 ; strain: Encephalomyocarditis virus ; read by: plaque count ; value: 10 µM
CN1C(=O)[C@@H](Cc2ccccc2)NC1=S ; agent: HIV-2 ; measure: inhibition ; cells: MT-4 ; read by: cytopathic effect / XTT ; tested at: 0.1 µg/mL ; value: 34%
CCCN=C(N)c1ccc(N2CCN(c3ccc(C(N)=NCCC)cc3)CC2)cc1 ; agent: Pneumocystis carinii ; measure: EC50 ; read by: ATP ; value: 1.6 µg/mL
CN=C(N)c1ncn([C@@H]2O[C@H](CO)[C@@H](O)[C@H]2O)n1 ; agent: Sandfly fever virus ; measure: EC50 ; cells: VERO ; strain: Sicilian ; read by: cytopathic effect ; value: 104 µg/mL
CC(=O)NC[C@H]1CN(c2ccc(-c3noc(C(N)=O)n3)c(F)c2)C(=O)O1 ; agent: Staphylococcus epidermidis ; measure: MIC ; strain: UC12084 (methicillin-resistant) ; value: 2 µg/mL
COc1ccc(S(=O)(=O)N(CC2CCCC2)C(=O)C(=O)C(=O)[C@@H](Cc2ccccc2)NC(=O)OC(C)(C)C)cc1 ; agent: HIV-1 ; measure: EC90 ; cells: CEM ; strain: IIIB ; read by: p24 ; value: 1 µM
O=C(NCCc1ccccc1)Nc1nc2ccccc2s1 ; agent: HIV-2 ; measure: inhibition ; cells: MT-4 ; read by: cytopathic effect / XTT ; tested at: 0.1 µg/mL ; value: 17%
Nc1nc2c(ccn2[C@@H]2C[C@H](CO)[C@@H](O)[C@H]2O)c(=O)[nH]1 ; agent: Coxsackie virus ; measure: MIC ; strain: A21 ; value: >100 µg/mL
CC(C)(C)c1ccc(CSc2ncnc3c2ncn3[C@@H]2O[C@H](CO)[C@@H](O)[C@H]2O)cc1 ; agent: Toxoplasma gondii ; measure: inhibition ; strain: RH adenosine kinase-deficient ; tested at: 25 µM ; value: 0%